ChEMBL document CHEMBL1148707, “Inhibition of the bacterial heme oxygenases from Pseudomonas aeruginosa and Neisseria meningitidis: novel antimicrobial targets” (J Med Chem, 2007)
The source made the active and inactive calls. The calls are words filed in the database; no cut-off is given here.

Test system: Pseudomonas aeruginosa
Assay: Growth inhibition of Pseudomonas aeruginosa MPA01 at <250 uM
Assay type: functional, organism-based
Outline: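 MPA01 grown 8 h at 37 °C, then diluted to OD600 0.05 in iron-restricted succinate minimal medium pH 7.0 with heme as iron source. Compound added from DMSO at 10-1500 µM. Incubated 10 h at 37 °C with aeration in 96-well format, then OD600 read.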

NCc1ccc([N+](=O)[O-])cc1[N+](=O)[O-]
Activity: inactive
